Measured values from several laboratories, pooled; numbers as filed in NIAID ChemDB.

Shared fields: enzyme or target tests; agent: HIV-1; target: Protease

Lines come from different laboratories, so protocols vary. ICn is the concentration giving n% inhibition. Blank or dashed fields: not listed here. Two numbers with a dash give a range or band.

| compound | endpoint | method | strain | setting | result |
|---|---|---|---|---|---|
| CC(C(=O)O)C(C)C(=O)N[C@@H](Cc1ccccc1)[C@H](O)C(=O)N1CSC(C)(C)[C@H]1C(=O)NC(C)(C)C | IC50 | - | IIIB | - | <5 µM |
| CC(C)C[C@H](NC(=O)[C@H](Cc1ccccc1)[C@H](O)[C@H](O)[C@H](Cc1ccccc1)NC(=O)OC(C)(C)C)C(=O)N[C@@H](Cc1ccccc1)C(N)=O | IC50 | HPLC | - | - | 0.0001–0.01 µM |
| COC(=O)N[C@H](C(=O)N[C@@H](Cc1ccccc1)[C@@H](O)CN(Cc1ccc(-c2ccccn2)cc1)NC(=O)[C@@H](NC(=O)OC)C(C)(C)C)C(C)(C)C | Ki | substrate cleavage | RF | - | 0.00266 µM |
| CC[C@H](C)[C@H](NC(=O)[C@H](Cc1ccccc1)C[C@H](O)[C@H](Cc1ccccc1)NC(=O)OC(C)(C)C)C(=O)NCc1nc2ccccc2[nH]1 | IC50 | HPLC | - | - | 0.0001–0.01 µM |
| CC(C)(C)OC(=O)N[C@@H](Cc1ccccc1)[C@H](O)CNC[C@@H](O)[C@H](Cc1ccccc1)NC(=O)C(C)(C)O | IC50 | HPLC | - | pH 5.5 | <10 µM |
| Cc1cn([C@@H]2C[C@@H](N=[N+]=[N-])[C@H](COC(=O)C(C)C(C)C(=O)N[C@@H](Cc3ccccc3)[C@H](O)C(=O)N3CSC(C)(C)[C@H]3C(=O)NC(C)(C)C)O2)c(=O)[nH]c1=O | IC50 | - | IIIB | - | <5 µM |
| CN(Cc1ccccc1)C(=O)N[C@@H](Cc1ccccc1)[C@H](O)CNC[C@@H](O)[C@H](Cc1ccccc1)NC(=O)OC(C)(C)C | IC50 | HPLC | - | pH 5.5 | >10 µM |
| Cc1cn([C@H]2C[C@H](N=[N+]=[N-])[C@@H](COC(=O)CCC(=O)N[C@@H](Cc3ccccc3)[C@H](O)C(=O)N3CSC[C@H]3C(=O)NC(C)(C)C)O2)c(=O)[nH]c1=O | IC50 | - | IIIB | - | >5 µM |
| CC(C)(C)OC(=O)N[C@@H](Cc1ccccc1)[C@H](O)CNC[C@@H](O)[C@H](Cc1ccccc1)NC(=O)NCc1ccccc1 | IC50 | HPLC | - | pH 5.5 | ~10 µM |
| CCN[C@H]1CO[C@@H]2OC[C@H](OC(=O)N[C@@H](Cc3ccccc3)[C@H](O)CN(CC(C)C)S(=O)(=O)c3ccc4nc(NC5CC5)sc4c3)[C@@H]21 | IC50 | substrate cleavage / fluorescence | - | - | 0.0008 µM |
| C/C=C(/C)C(=O)O[C@H]1[C@H](O)C(C)(C)C[C@H]2C3=CC[C@@H]4[C@@]5(C)CC[C@H](O[C@@H]6O[C@H](C(=O)O)[C@@H](O[C@@H]7O[C@H](CO)[C@@H](O)[C@H](O)[C@H]7O)[C@H](O)[C@H]6O[C@@H]6O[C@H](CO)[C@@H](O)[C@H](O)[C@H]6O)[C@](C)(CO)[C@@H]5CC[C@@]4(C)[C@]3(C)C[C@@H](O)[C@]21COC(C)=O | IC50 | HPLC | - | - | >100 µM |
| CCN[C@H]1CO[C@@H]2OC[C@H](OC(=O)N[C@@H](Cc3cc(F)cc(F)c3)[C@H](O)CN(CC(C)C)S(=O)(=O)c3ccc4nc(NC5CC5)sc4c3)[C@@H]21 | IC50 | substrate cleavage / fluorescence | - | - | 0.001 µM |
| CC(C)(C)OC(=O)N[C@@H](Cc1ccc2ccccc2c1)[C@@H](O)C[C@@H](Cc1ccccc1)C(=O)N[C@H]1c2ccccc2C[C@H]1O | IC50 | HPLC | - | - | 0.0001–0.01 µM |
| O=c1oc2ccccc2c(O)c1Cc1c(O)c2ccccc2oc1=O | IC50 | - | - | - | >100 µM |
| C/C=C(\C)C(=O)OC[C@@]12[C@H](O)C[C@]3(C)C(=CC[C@@H]4[C@@]5(C)CC[C@H](O[C@@H]6O[C@H](C(=O)O)[C@@H](O[C@@H]7O[C@H](CO)[C@@H](O)[C@H](O)[C@H]7O)[C@H](O)[C@H]6O[C@@H]6O[C@H](CO)[C@@H](O)[C@H](O)[C@H]6O)[C@](C)(CO)[C@@H]5CC[C@]43C)[C@@H]1CC(C)(C)[C@@H](O)[C@@H]2O | IC50 | HPLC | - | - | >100 µM |
| CC(C)(C)OC(=O)N[C@@H](Cc1ccccc1)[C@H](O)CNC[C@@H](O)[C@H](Cc1ccccc1)NC(=O)C(N)C(F)(F)F | IC50 | HPLC | - | pH 5.5 | <10 µM |
| COCCOCCOCCNC(=O)[C@@H](NC(=O)[C@H](Cc1ccccc1)C[C@H](O)[C@H](Cc1ccccc1)NC(=O)OC(C)(C)C)C(C)C | IC50 | HPLC | - | - | 0.0001–0.01 µM |
| C/C=C(\C)C(=O)O[C@H]1[C@H](O)C(C)(C)C[C@H]2C3=CC[C@@H]4[C@@]5(C)CC[C@H](O[C@@H]6O[C@H](C(=O)O)[C@@H](O[C@@H]7O[C@H](CO)[C@@H](O)[C@H](O)[C@H]7O)[C@H](O)[C@H]6O[C@@H]6O[C@H](CO)[C@@H](O)[C@H](O)[C@H]6O)[C@](C)(CO)[C@@H]5CC[C@@]4(C)[C@]3(C)C[C@@H](O)[C@]21COC(C)=O | IC50 | HPLC | - | - | >100 µM |
| CC(C)[C@H](NC(=O)OCc1ccc(-c2ccccc2)cc1)C(=O)N[C@@H](Cc1ccccc1)[C@H](O)CNC[C@@H](O)[C@H](Cc1ccccc1)NC(=O)OC(C)(C)C | IC50 | HPLC | - | pH 5.5 | <10 µM |
| CNC(=O)[C@@H](NC(=O)[C@@H](C[C@H](O)[C@@H](OCc1ccccc1)C(=O)N[C@H](C(=O)NC)C(C)C)OCc1ccccc1)C(C)C | Ki | substrate cleavage | - | - | 0.53 µM |
| O=C1N(Cc2ccccc2)[C@H](CCc2ccccc2)[C@@H](O)[C@@H](Cc2ccccc2)N1Cc1ccccc1 | Ki | HPLC | RF | - | 0.97 µM |
| CC(C)(C)OC(=O)N[C@@H](Cc1ccccc1)[C@H](O)CNC[C@@H](O)[C@H](Cc1ccccc1)NC(=O)C1(O)CCCCC1(C)C | IC50 | HPLC | - | pH 5.5 | <10 µM |
| CNC(=O)[C@@H](NC(=O)[C@H](OCc1ccccc1)[C@@H](O)[C@H](O)[C@@H](OCc1ccccc1)C(=O)N[C@H](C(=O)NC)C(C)C)C(C)C | Ki | substrate cleavage | - | - | 0.04 µM |

Repeating the first 2 entries:

compound	endpoint	method	strain	setting	result
CC(C(=O)O)C(C)C(=O)N[C@@H](Cc1ccccc1)[C@H](O)C(=O)N1CSC(C)(C)[C@H]1C(=O)NC(C)(C)C	IC50	-	IIIB	-	<5 µM
CC(C)C[C@H](NC(=O)[C@H](Cc1ccccc1)[C@H](O)[C@H](O)[C@H](Cc1ccccc1)NC(=O)OC(C)(C)C)C(=O)N[C@@H](Cc1ccccc1)C(N)=O	IC50	HPLC	-	-	0.0001–0.01 µM